From patent publication US8268803B2, “5, 6-ring annulated indole derivatives and use thereof” (Merck Sharp & Dohme Corp., priority 2006, dated 2012)

Tests used:
[1] = molecular target: HCV NS5B polymerase (NS5BΔCT21, from HCV-Con 1 isolate, genotype 1b) (Hepatitis C virus genotype 1b, UniProt Q9WMX2); experiment: HCV NS5B Polymerase Inhibition Assay; settings: incorporation of radiolabeled CTP, 22° C. for 2 hours
Description: A chemically synthesized 75-mer version, designated DCoH75, whose sequence matches the 3′-end of D-RNA, and DCoH75ddC, where the 3′-terminal cytidine of DCoH75 is replaced by dideoxycytidine, were used for assaying the NS5B enzyme activity as described in Ferrari et al., 12th International Symposium on HCV and Related Viruses, P-306 (2005). The sequence of the template RNA was: 5′-UGUGCCGGUCUUUCUGAACGGGAUAUAAACCUGGCCAGCUUCAUCGAACAAGUUGCCGUGUCUAUGACAUAGAUC-3′ (SEQ ID NO: 1). A soluble C-terminal 21-amino acid truncated NS5B enzyme form (NS5BΔCT21, from HCV-Con 1 isolate, genotype 1b, Genbank accession number AJ238799) was produced and purified from Escherichia coli as C-terminal polyhistidine-tagged fusion protein as described in Ferrari et al., J. Virol. 73:1649-1654 (1999). […] Reactions were incubated at 22° C. for 2 hours, then stopped by adding 150 mM EDTA, washed in DE81 filter plate in 0.5M di-basic sodium phosphate buffer, pH 7.0, and counted using Packard TopCount after the addition of scintillation cocktail. Polynucleotide synthesis was monitored by the incorporation of radiolabeled CTP. The effect of the Compounds of Formula (I) on the polymerase activity was evaluated by adding various concentrations of a Compound of Formula (I), typically in 10 serial 2-fold dilutions, to the assay mixture. […]

[2] = tested on: HCV replicon cells (replicon RNA level); experiment: Cell-Based HCV Replicon Assay; settings: replicon RNA level by real time PCR (Taqman), cells harvested on day 3
Procedure: To measure cell-based anti-HCV activity of the a Compound of Formula (I), replicon cells were seeded at 5000 cells/well in 96-well collagen I-coated Nunc plates in the presence of the Compound of Formula (I). Various concentrations of a Compound of Formula (I), typically in 10 serial 2-fold dilutions, were added to the assay mixture, with the starting concentration ranging from 250 μM to 1 μM. The final concentration of DMSO was 0.5%, fetal bovine serum was 5%, in the assay media. Cells were harvested on day 3 by the addition of 1× cell lysis buffer (Ambion cat #8721). The replicon RNA level was measured using real time PCR (Taqman assay). The amplicon was located in 5B. The PCR primers were: 5B.2F, ATGGACAGGCGCCCTGA (SEQ ID NO: 2); 5B.2R, […] (SEQ ID NO: 3); the probe sequence was FAM-labeled CACGCCATGCGCTGCGG (SEQ ID NO: 4). GAPDH RNA was used as endogenous control and was amplified in the same reaction as NS5B (multiplex PCR) using primers and VIC-labeled probe recommended by the manufacturer (PE Applied Biosystem). […] Alternatively, to quantitate the absolute amount of replicon RNA, a standard curve was established by including serially diluted T7 transcripts of replicon RNA in the Taqman assay. […]

CS(=O)(=O)NC(=O)c1c(-c2ccc[nH]c2=O)c2cc3c(cc2n1Cc1cc(F)ccc1F)CCO3
IC50 [1]: 25 to 100 nM
EC50 [2]: > 5000 nM
